Substrate in this data set: N#CC1=C(N)OC2=C(C(=O)CCC2)C1c1cn([C@H]2C[C@@H](O)[C@@H](CO)O2)c(=O)[nH]c1=O
The conditions noted are these: Orthopoxvirus vaccinia.

B1: Thymidine kinase, cytosolic (Homo sapiens), P04183 (protein)
chain: MSCINLPTVLPGSPSKTRGQIQVILGPMFSGKSTELMRRVRRFQIAQYKCLVIKYAKDTRYSSSFCTHDRNTMEALPACLLRDVAQEALGVAVIGIDEGQFFPDIVEFCEAMANAGKTVIVAALDGTFQRKPFGAILNLVPLAESVVKLTAVCMECFREAAYTKRLGTEKEVEVIGGADKYHSVCRLCYFKKASGQPAGPDNKENCPVPGKPGEAVAARKLFAPQQILQCSPAN
In general, Km refers to the concentration of substrate that gives half-maximal velocity. Take B1: the Km worked out at 43 µM.

(Values after ChEMBL document CHEMBL1138928, “Toward orthopoxvirus countermeasures: a novel heteromorphic nucleoside of unusual structure” (J Med Chem, 2006).)
